Literature values in PubChem BioAssay AID977610.

Columns and labels:
[1] = biological target: Lp1NTPDase from Legionella pneumophila; test: PubChem AID 977610; details: PDB protein-ligand complexes, literature Ki; protein: Lp1NTPDase from Legionella pneumophila; PDB entry 3AAQ
glutamine synthetase = test: PubChem AID 977610; details: PDB protein-ligand complexes, literature Ki; protein: glutamine synthetase; PDB entry 1FPY

Structure (SMILES)	Ki [1]	Ki (glutamine synthetase)
CCN(CC)c1ncnc2c1ncn2[C@@H]1O[C@H](COP(=O)(O)OP(=O)(O)C(Br)(Br)P(=O)(O)O)[C@@H](O)[C@H]1O	500 µM	–
CP(=O)(O)CC[C@H](N)C(=O)O	–	1 µM
